Results from US7399782B2, “Polyether brevetoxin derivatives as a treatment for cystic fibrosis, mucociliary dysfunction, and pulmonary diseases” (dated 2008).

Assays:
[1] = system: conscious sheep; experiment: Tracheal mucus velocity (TMV) in conscious sheep; settings: versus PbTx-3 (20 breaths of 10 pg/mL)
[2] = system: conscious sheep; experiment: Pulmonary airflow resistance (RL) / brevetoxin-induced bronchoconstriction in conscious sheep; settings: for effect on PbTx-3-induced bronchoconstriction: FIG. 5, 15 minutes prior to PbTx-3 challenge

β-Naphthoyl-PbTx-3
TMV relative to PbTx-3 ([1]; FIG. 3, 10 pg dose (n=2)): increased TMV relative to PbTx-3
TMV relative to PbTx-3 ([1]; FIG. 3, 100 pg dose (n=4)): increased TMV relative to PbTx-3
effect on PbTx-2-induced bronchoconstriction ([2]; FIG. 4, pretreatment with 20 breaths of 10 pg/mL, 15 minutes prior to PbTx-2 challenge): blocked PbTx-2-induced bronchoconstriction
effect on PbTx-3-induced bronchoconstriction ([2]; pretreatment with 20 breaths of 10 pg/mL): blocked PbTx-3-induced constrictor response
effect on PbTx-3-induced bronchoconstriction ([2]; pretreatment with 20 breaths of 100 pg/mL): increase the inhibition of PbTx-3-induced bronchoconstriction
